Key:
[1] = system: NC(=O)C1=CN([C@@H]2O[C@H](COP(=O)(O)OP(=O)(O)OC[C@H]3O[C@@H](n4cnc5c(N)ncnc54)[C@H](O)[C@@H]3O)[C@@H](O)[C@H]2O)C=CC1; assay: purified protein; conditions: varied: cofactor
[2] = system: NC(=O)C1=CN([C@@H]2O[C@H](COP(=O)(O)OP(=O)(O)OC[C@H]3O[C@@H](n4cnc5c(N)ncnc54)[C@H](OP(=O)(O)O)[C@@H]3O)[C@@H](O)[C@H]2O)C=CC1; assay: purified protein; conditions: varied: cofactor

Substance: SMFMO (Stenotrophomonas maltophilia K279a; Q201R)
- Km [1]: 21.2 ± 4.3 M x 10^-6
- kcat [1]: 0.031 ± 0.003 s⁻¹
- kcat/Km [1]: 1480 M⁻¹ s⁻¹
- Km [2]: 8.3 ± 1.6 M x 10^-6
- kcat [2]: 0.007 ± 0.0005 s⁻¹
- kcat/Km [2]: 875 M⁻¹ s⁻¹

Substance: SMFMO (Stenotrophomonas maltophilia K279a; H202T)
- Km [1]: 14.1 ± 2.9 M x 10^-6
- kcat [1]: 0.012 ± 0.0008 s⁻¹
- kcat/Km [1]: 857 M⁻¹ s⁻¹
- Km [2]: 4.2 ± 0.7 M x 10^-6
- kcat [2]: 0.012 ± 0.0004 s⁻¹
- kcat/Km [2]: 3000 M⁻¹ s⁻¹
